Biological target: the molecule itself
Assay: cryo-EM structure

B1: PEGylated SFTSV nucleocapsid protein (natural protein)
chain: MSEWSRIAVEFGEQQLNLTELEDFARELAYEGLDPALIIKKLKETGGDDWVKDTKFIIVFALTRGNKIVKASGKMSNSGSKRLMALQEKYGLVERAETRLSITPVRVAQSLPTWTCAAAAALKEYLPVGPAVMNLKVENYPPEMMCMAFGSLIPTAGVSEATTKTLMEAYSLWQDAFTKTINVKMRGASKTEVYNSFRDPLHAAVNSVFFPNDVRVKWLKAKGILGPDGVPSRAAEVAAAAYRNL
modifications: PEGylated with methyl-PEG4-NHS ester (modified residues not stated)
B1 was tested, and the “stoichiometry N” value was 5.
